Compound potency records, mixed from different reports. Data source: NIAID ChemDB in PubChem.

Shared fields: enzyme or target tests

Conditions beyond the fields shown may differ between rows. Percent inhibition refers to the dose given; in toxicity tests it is the harm to the cells. Fold resistance has wild type as its base. Blank or dashed fields: not listed here. ICn: concentration for n% inhibition. Two numbers with a dash give a range or band.

smiles,tested at,strain,protein,method,mutations,agent,measure,value
CCN1c2ncc(CCOc3ccc(C(=O)O)c4ccccc34)cc2C(=O)Nc2c(C)cc(F)nc21,,,Reverse transcriptase,nucleotide incorporation / radiometric,RT-V106A,HIV-1,fold resistance,1–10
CC(C)[C@H](C)OC(=O)[C@H](Cc1ccccc1)NC(=O)C(=O)N[C@@H](Cc1ccccc1)C(=O)O[C@@H](C)C(C)C,10 µM,,Protease,absorbance,,HIV-1,inhibition,<10%
CC1=C(CCC(=O)O)c2cc3nc(cc4[nH]c(cc5[nH]c(cc1n2)c(CCC(=O)O)c5CC(=O)O)c(CCC(=O)O)c4C)C(CCC(=O)O)=C3C,60 µg/mL,,gp120,,,HIV-1,inhibition,14.7%
COC(=O)/C=C/c1ccc(NC(=O)CSc2nnnn2-c2ccc(C)cc2Cl)c(Cl)c1,,,Reverse transcriptase,PicoGreen / fluorescence,RT-K103 Y181C,HIV-1,IC50,<1 µM
Cc1cn([C@H]2CC[C@@H](COP(=O)(O)OP(=O)(O)OP(=O)(O)OP(=O)(O)OC[C@@H]3CC[C@H](n4cc(C)c(=O)[nH]c4=O)O3)O2)c(=O)[nH]c1=O,,,Reverse transcriptase,nucleotide incorporation / radiometric,RT-K65R,HIV,fold resistance,5
CC(C)(C)NC(=O)[C@H]1N(C(=O)[C@@H](O)[C@H](Cc2ccccc2)NC(=O)[C@H](CC(N)=O)NC(=O)COc2cccc(Cl)c2)CSC1(C)C,0.05 µM,,Protease,,,HIV-1,inhibition,97.7%
CCN1c2ncc(CCOc3ccc(CC(C)C(=O)O)c4ccccc34)cc2C(=O)N(C)c2ccc(F)nc21,,,Reverse transcriptase,nucleotide incorporation / radiometric,RT-K103N Y181C,HIV-1,fold resistance,1–10
CC(C)(C)c1ccc(-n2nnnc2SCC(=O)Nc2ccc(C#CCCC(=O)O)cc2Cl)c(Cl)c1,,WT,Reverse transcriptase,PicoGreen / fluorescence,,HIV-1,IC50,<1 µM
CC(=O)N(C)C1COCCn2c1nc(C(=O)NCc1ccc(F)cc1)c(O)c2=O,,,Integrase,ELISA,,HIV-1,IC50,<10 µM
CCOC(=O)C(=O)CC(=O)/C=C/c1cccn1Cc1ccc(C)cc1C,100 µM,,RNase H,substrate cleavage / fluorescence,Y501A,HIV-1,inhibition,15%
CS(=O)(=O)C[C@H](NC(=O)COc1cccc2ccccc12)C(=O)N[C@@H](Cc1ccccc1)[C@H](O)C(=O)N1CSC[C@H]1C(=O)N[C@H](C(N)=O)c1ccccc1,0.05 µM,,Protease,,,HIV-1,inhibition,6.1%
CC(C)(C#Cc1ccc(NC(=O)CSc2nnnn2-c2ccc(C3CC3)cc2Cl)c(Cl)c1)NC(=O)CN1CCCC1,,,Reverse transcriptase,PicoGreen / fluorescence,RT-K103 Y181C,HIV-1,IC50,<1 µM
Nc1ccn([C@H]2CC[C@@H](COP(=O)(O)OP(=O)(O)OP(=O)(O)O)O2)c(=O)n1,,,Reverse transcriptase,nucleotide incorporation / radiometric,RT-K65R,HIV,fold resistance,5.57
CN1CCN(S(=O)(=O)c2ccc(NC(=O)CSc3nnnn3-c3ccc(C4CC4)cc3Cl)c(Cl)c2)CC1,,,Reverse transcriptase,PicoGreen / fluorescence,RT-K103 Y181C,HIV-1,IC50,<1 µM
Nc1nc2c(ncn2[C@H]2CC[C@@H](COP(=O)(O)OP(=O)(O)OP(=O)(O)O)O2)c(=O)[nH]1,,,Reverse transcriptase,,RT-L74V T215Y,HIV,fold resistance,7.14
COc1ccccc1-c1cn2ccn(Cc3cccc(Cl)c3)c(=O)c2c(O)c1=O,,,Integrase,ELISA,,HIV-1,IC50,0.01–0.1 µM
Cc1ccc(-c2ncsc2SCC(=O)Nc2ccc(-c3ccc(CC(=O)O)cc3)cc2Cl)c(Cl)c1,,,Reverse transcriptase,PicoGreen / fluorescence,RT-K103 Y181C,HIV-1,IC50,<1 µM
COc1cccc(Cn2cccc2/C=C/C(=O)CC(=O)C(=O)O)c1,,,RNase H,substrate cleavage / fluorescence,Q475A,HIV-1,IC50,7.4 µM
Nc1ccn([C@@H]2CS[C@H](COP(=O)(O)OP(=O)(O)OP(=O)(O)O)O2)c(=O)n1,,,Reverse transcriptase,radiometric,RT-K65R Q151M,HIV,fold resistance,0.94
COc1ccc(OC)c(C/C=C(\C)CC/C=C(\C)CC/C=C(\C)CC/C=C(\C)CC/C=C(\C)CCC=C(C)C)c1,,,Reverse transcriptase,nucleotide incorporation,,HIV-2,IC90,10 µM
C=Cc1c(C)c2cc3[nH]c(cc4nc(cc5nc(cc1[nH]2)C(C)=C5CCC(=O)O)C(CCC(=O)O)=C4C)c(C)c3C=C,60 µg/mL,,gp120,,,HIV-1,inhibition,55.8%
CNC(=O)NC(C)(C)C#Cc1ccc(NC(=O)CSc2nnnn2-c2ccc(C3CC3)cc2Cl)c(Cl)c1,,,Reverse transcriptase,PicoGreen / fluorescence,RT-K103 Y181C,HIV-1,IC50,<1 µM
CC(C)COC(=O)C(Cc1cccc2ccccc12)NC(=O)C(=O)NC(Cc1cccc2ccccc12)C(=O)OCC(C)C,10 µM,,Protease,absorbance,,HIV-1,inhibition,19%
Cc1ccc(-n2nnnc2SCC(=O)Nc2ccc(-c3ccc(CC(N)=O)cc3)cc2Cl)c(Cl)c1,,,Reverse transcriptase,PicoGreen / fluorescence,RT-K103 Y181C,HIV-1,IC50,<1 µM
CCOC(=O)C(=O)CC(=O)/C=C/c1cc(-c2ccccc2)cn1Cc1ccc(F)cc1,100 µM,,RNase H,substrate cleavage / fluorescence,Y501A,HIV-1,inhibition,0%
CCCC#Cc1ccc(NC(=O)CSc2nnnn2-c2ccc(C(C)(C)C)cc2Cl)c(Cl)c1,,,Reverse transcriptase,PicoGreen / fluorescence,RT-K103 Y181C,HIV-1,IC50,<1 µM
CCCOc1cc(Cl)ccc1CN1CCn2cc(-c3nccs3)c(=O)c(O)c2C1=O,,,Integrase,ELISA,,HIV-1,IC50,0.01–0.1 µM
CC(C)(C)c1ccc(-n2nnnc2SCC(=O)Nc2ccc(NC(=O)c3ccccc3Cl)cc2Cl)c(Cl)c1,,WT,Reverse transcriptase,PicoGreen / fluorescence,,HIV-1,IC50,<1 µM
CC1=C(CCC(=O)O)c2cc3nc(cc4[nH]c(cc5[nH]c(cc1n2)c(CCC(=O)O)c5C)c(CCC(=O)O)c4C)C(CCC(=O)O)=C3C,60 µg/mL,,gp120,,,HIV-1,inhibition,19.5%
N[C@@H](CO)C(=O)N[C@@H](Cc1ccccc1)[C@H](O)C(=O)NCC1CCCCC1,1000 µM,,Protease,,,HIV-1,inhibition,4.5%
Cc1ccc(N=Nc2c(S(=O)(=O)O)cc3cc(S(=O)(=O)O)cc(Nc4nc(Cl)nc(N(C)c5ccccc5)n4)c3c2O)c(S(=O)(=O)O)c1,,IIIB,gp41,ELISA,,HIV-1,IC50,3.18 µg/mL
COc1ccc(Cl)c(-n2nnnc2SCC(=O)Nc2ccc(C#CC(C)(C)C(=O)O)cc2Cl)c1,,,Reverse transcriptase,PicoGreen / fluorescence,RT-K103 Y181C,HIV-1,IC50,<1 µM
Cn1ccnc1-c1cn2ccn(Cc3cccc(Cl)c3)c(=O)c2c(O)c1=O,,,Integrase,ELISA,,HIV-1,IC50,0.01–0.1 µM
Nc1nc2c(ncn2[C@H]2CC[C@@H](COP(=O)(O)OP(=O)(O)OP(=O)(O)O)O2)c(=O)[nH]1,,,Reverse transcriptase,nucleotide incorporation / radiometric,RT-D67N K70R T215Y K219Q,HIV,fold resistance,0.66
C=Cc1c(C)c2cc3nc(cc4[nH]c(cc5nc(cc1[nH]2)C(C)=C5CO)c(C)c4CCC(=O)O)C(CCC(=O)O)=C3C,60 µg/mL,,gp120,,,HIV-1,inhibition,82.6%
CC(C)(C#Cc1ccc(NC(=O)CSc2nnnn2-c2ccc(C(C)(C)C)cc2Cl)c(Cl)c1)C(=O)O,,WT,Reverse transcriptase,PicoGreen / fluorescence,,HIV-1,IC50,<1 µM
COc1ccnc2[nH]cc(C(=O)C(=O)N3CCN(C(=O)c4ccccc4)C[C@H]3C)c12,,NL4-3,gp120,ELISA,GP120-M434T,HIV-1,fold resistance,>97
CC(C)(C)c1ccc(-n2nnnc2SCC(=O)Nc2ccc(C#Cc3ccccc3)cc2Cl)c(Cl)c1,,WT,Reverse transcriptase,PicoGreen / fluorescence,,HIV-1,IC50,<1 µM
CC1(C)c2nc(C(=O)NCc3ccc(F)cc3)c(O)c(=O)n2CCN1Cc1nn[nH]n1,,,Integrase,ELISA,,HIV-1,IC50,<10 µM
CCN1c2ncc(CCOc3ccc(NC(=O)CC(C)(C)C(=O)O)c4ccccc34)cc2C(=O)N(C)c2cccnc21,,,Reverse transcriptase,nucleotide incorporation / radiometric,RT-K103N Y181C,HIV-1,fold resistance,1–10
CC(C)Oc1cccc(OCC(=O)N[C@@H](CC(N)=O)C(=O)N[C@@H](Cc2ccccc2)[C@H](O)C(=O)N2CSC(C)(C)[C@H]2C(=O)NC(C)(C)C)c1,0.05 µM,,Protease,,,HIV-1,inhibition,98.6%
CN(C)C(=O)C(=O)N(C)C1CN(C2CC2)CCn2c1nc(C(=O)NCc1ccc(F)c(Cl)c1)c(O)c2=O,,,Integrase,ELISA,,HIV-1,IC50,<10 µM
CC(C)(C)NC(=O)[C@@H]1C[C@@H](OCc2ccccc2)CN1C(=O)[C@@H](O)[C@H](Cc1ccccc1)NC(=O)[C@H](CC(N)=O)NC(=O)OCc1ccccc1,5 µM,,Protease,,,HIV-1,inhibition,65.4%
CN(C)C(=O)C(=O)N(C)C1COCCn2c1nc(C(=O)NCc1ccc(F)cc1)c(O)c2=O,,,Integrase,ELISA,,HIV-1,IC50,<10 µM
CC(C)C(C)OC(=O)[C@H](Cc1ccccc1)NC(=O)C(=O)N[C@@H](Cc1ccccc1)C(=O)OC(C)C(C)C,10 µM,,Protease,absorbance,,HIV-1,inhibition,37%
CN1CCc2nc(C(=O)NCc3ccc(F)cc3)c(O)c(=O)n2C1=O,,,Integrase,ELISA,,HIV-1,IC50,<10 µM
CC(C)(C#Cc1ccc(NC(=O)CSc2nnnn2-c2cc(C(C)(C)C)ccc2Cl)c(Cl)c1)C(=O)O,,WT,Reverse transcriptase,PicoGreen / fluorescence,,HIV-1,IC50,<1 µM
O=C1c2c(O)c(=O)c(-c3nccs3)cn2CCN1Cc1ccc(Cl)cc1OCc1ccccc1,,,Integrase,ELISA,,HIV-1,IC50,0.01–0.1 µM
COC(=O)Cc1ccc(-c2ccc(NC(=O)CSc3nnnn3-c3ccc(C)cc3Cl)c([N+](=O)[O-])c2)cc1,,,Reverse transcriptase,PicoGreen / fluorescence,RT-K103 Y181C,HIV-1,IC50,<1 µM
CC(C)CNC(=O)C(CC(C)C)NC(=O)C(=O)NC(CC(C)C)C(=O)NCC(C)C,10 µM,,Protease,absorbance,,HIV-1,inhibition,21%
CC(C)=CCN1Cc2cccc3[nH]c(=S)n(c23)C[C@@H]1C,,,Reverse transcriptase,nucleotide incorporation,,HIV,Ki,0.55 µM
CC(C)(C)c1ccc(-n2nnnc2SCC(=O)Nc2ccc(NC(=O)c3cccc(O)c3)cc2Cl)c(Cl)c1,,,Reverse transcriptase,PicoGreen / fluorescence,RT-K103 Y181C,HIV-1,IC50,<1 µM
O=C(/C=C/c1cccn1Cc1ccccc1Cl)CC(=O)C(=O)O,,,RNase H,substrate cleavage / fluorescence,R557A,HIV-1,IC50,63 µM
CS(=O)(=O)Nc1cn2ccn(Cc3cccc(Cl)c3)c(=O)c2c(O)c1=O,,,Integrase,ELISA,,HIV-1,IC50,<0.01 µM
CNc1ccccc1C(=O)O[C@H]1[C@@H](O)[C@H](n2cnc3c(N)ncnc32)O[C@@H]1COP(=O)(O)OP(=O)(O)OP(=O)(O)OP(=O)(O)OC[C@@H]1CC[C@H](n2cnc3c(=O)[nH]c(N)nc32)O1,,,Reverse transcriptase,nucleotide incorporation / radiometric,RT-D67N K70R,HIV,IC50,2.5 µM
Cc1ccc(Cl)cc1Nc1nc(C(F)(F)F)ccc1C(=O)NN1CCN(c2cccc(Cl)c2)CC1,,,RNase H,RNase H / absorbance,Q475A,HIV-1,fold resistance,>5.5
Nc1nc2c(ncn2[C@H]2CC[C@@H](COP(=O)(O)OP(=O)(O)OP(=O)(O)OP(=O)(O)OC[C@@H]3CC[C@H](n4cnc5c(=O)[nH]c(N)nc54)O3)O2)c(=O)[nH]1,,,Reverse transcriptase,nucleotide incorporation / radiometric,RT-K65R,HIV,fold resistance,5.26
CC(C)(C#Cc1ccc(NC(=O)CSc2nnnn2-c2ccc(C3CC3)cc2Cl)c(Cl)c1)NCc1ccccc1O,,,Reverse transcriptase,PicoGreen / fluorescence,RT-K103 Y181C,HIV-1,IC50,<1 µM
CCN1c2ncc(CCOc3ccc(/C=C(\C)C(=O)O)c4ccccc34)cc2C(=O)Nc2c(C)ccnc21,,,Reverse transcriptase,nucleotide incorporation / radiometric,RT-K103N Y181C,HIV-1,fold resistance,1–10
CCCC[C@H](NC(=O)[C@H](C)NC(=O)[C@H](CCC(=O)O)NC[C@H](Cc1ccccc1)NC(=O)[C@H](CC(C)C)NC(=O)[C@@H](NC(=O)[C@@H](N)CCCN=C(N)N)C(C)C)C(N)=O,,,Protease,HPLC,PR-K45I,HIV,IC50,>0.075 µM
CC(C)(C#Cc1ccc(NC(=O)CSc2nnnn2-c2ccc(C3CC3)cc2Cl)c(Cl)c1)C(=O)NCCN1CCCC1,,,Reverse transcriptase,PicoGreen / fluorescence,RT-K103 Y181C,HIV-1,IC50,<1 µM
O=C(Nc1cn2c(c(O)c1=O)C(=O)N(Cc1cccc(Cl)c1)CC2)c1ccncc1,,,Integrase,ELISA,,HIV-1,IC50,0.01–0.1 µM
Cc1ccc(-n2nnnc2SCC(=O)Nc2ccc(-c3ccc(CC(=O)O)cc3)cc2Cl)c(Cl)c1,,,Reverse transcriptase,PicoGreen / fluorescence,RT-K103 Y181C,HIV-1,IC50,<1 µM
CN(C)C(=O)C(=O)N1CCc2nc(C(=O)NCc3ccc(F)cc3)c(O)c(=O)n2CC1,,,Integrase,ELISA,,HIV-1,IC50,<10 µM
Cc1cnc(-c2cn3ccn(Cc4cccc(Cl)c4)c(=O)c3c(O)c2=O)s1,,,Integrase,ELISA,,HIV-1,IC50,<0.01 µM
CC(C)=CCN1Cc2cccc3[nH]c(=S)n(c23)C[C@@H]1C,,,Reverse transcriptase,nucleotide incorporation,RT-V60T,HIV,fold resistance,2.59
Cc1cn([C@H]2CC[C@@H](COP(=O)(O)OP(=O)(O)OP(=O)(O)O)O2)c(=O)[nH]c1=O,,,Reverse transcriptase,,RT-L74V T215Y,HIV,fold resistance,10.9
O=C(CSc1nnnn1-c1ccc(C2CC2)cc1Cl)Nc1ccc(C#CC(O)(C(F)(F)F)C(F)(F)F)cc1Cl,,,Reverse transcriptase,PicoGreen / fluorescence,RT-K103 Y181C,HIV-1,IC50,<1 µM